{"source": "paper PMC6002686", "key": {"[1]": {"tested_on": "P-ArcA (in vitro phosphorylated ArcA) (Salmonella enterica serovar Enteritidis NCTC13349)", "experiment": "EMSA", "settings": "phosphorylated ArcA, dose-dependent, slowest complex at 0.9 and 1.2 ug; recombinant protein; protein details: C-terminal 6xHis (pBAD-TOPO); label: none (GelRed stain); probe letters rebuilt from the primers and the genome"}, "[2]": {"tested_on": "ArcA (non-phosphorylated) (Salmonella enterica serovar Enteritidis NCTC13349)", "experiment": "EMSA", "settings": "non-phosphorylated, band-shift pattern differs from P-ArcA; recombinant protein; protein details: C-terminal 6xHis (pBAD-TOPO); label: none (GelRed stain); probe letters rebuilt from the primers and the genome"}}, "note": "Construct, isoform or probe ends are uncertain for at least one entry.", "data": [{"sequence": "TCTAAGAAAACCTCATCCCGGGATTTTCAGGCAACCCTCCCGGTGATGCCAAAGAGAAAAGTGTAGTTCGTTGACAATAAATTTACATTTCTACAACTTAAAAGGGCCATTTTTGCTAAAGAAGCGAGTCAGCCCGTTTAACCTTTATCCAGGCTTGCCGACAGTAGAATTGAGATGGCTCCGCTACTTCACCCGGTGACGGCTGATTACGTTATGCCTTATCTCCTGATGACGGCTGCCAGATCACAATGCTTTGGTAAACCGGAAATGACTTTGCTTGTAACCTTCGCGAAGATAAAAACGGTGTGCATCGCGGCGTTTAATATTTGTGGAAAGCTCCGTTAGCTCGGCGCCCGCCTGACGTGCTTCTTCTTCTGCCCAGGCCAGAAGCTGACTGCCAATTTTTTGTCCCCGCATCGGCGGTAATACCACCAGCTCCTGAATTTCGCCAATCCAGTTGGCATGATGGAGATGAAACT (double strand) [complete lpxO promoter region, 480 bp]", "values": [{"measurement": "binding result", "setting": "[1]", "result": "binds"}, {"measurement": "binding result", "setting": "[2]", "result": "binds"}]}]}
